Results as given in article PMC11227194, “A ferritin-based nanoparticle displaying a neutralizing epitope for foot-and-mouth disease virus (FMDV) confers partial protection in guinea pigs” (BMC Veterinary Research, 2024).

Molecular target: the molecule itself
Test: […] (50 mM Tris HCl, pH 7.4, 10 mM MgCl2), […]

B1: Helicobacter pylori J99 ferritin (natural protein)
chain: MLSKDIIKLLNEQVNKEMNSSNLYMSMSSWCYTHSLDGAGLFLFDHAAEEYEHAKKLIIFLNENNVPVQLTSISAPEHKFEGLTQIFQKAYEHEQHISESINNIVDHAIKSKDHATFNFLQWYVAEQHEEEVLFKDILDKIELIGNENHGLYLADQYVKGIAKSRKS
notes: also called Hpf; ferritin-based nanoparticle; source: E. coli BL21 (DE3), purified (heat precipitation 65 °C, SEC); copies: 24
binding result: binds
